In US6709649B1 (Fondazione Centro San Raffaele Del Monte Tabor, priority 1998, dated 2004):

Assay: general procedure: Fmoc solid-phase peptide synthesis in flow; solid support providing C-terminus amide, substitution 0.50 mmol/g
Conditions: whole synthesis, scale 0.2 mmol

## Ace-FAYIARPLPRAHIKEYFY-NH2 (N-acetyl, C-amide)
Based on the resin substitution degree
  crude yield: 42%
  crude mass: 0.193 g
  isolated mass: 0.038 g
